Primary screen of a compound library

The values are deposited in ChEMBL (CHEMBL3988442, “University of Dundee, Small-Polar-MMV Screening Library” (2021)).

Each number is a percent effect as filed. The controls that fix the scale are not given in the record; negative values are as filed. This is part of a subset picked to be rich in strong results.

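Whole-cell growth test on Mycobacterium tuberculosis, read after 4 days in a medium based on cholesterol and the lipid DPPC; the read-out is not stated. Concentration: 500 µM. The record gives no direction; compounds that gave an IC50 in retests scored well above the rest, so higher reads as more growth inhibition. Of about 18,000 compounds tested this way, about 900 (5%) reached 50% or more in at least one test.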

structure	effect
Cc1cn(CC(=O)NCC[S+](C)[O-])c2ccccc12 (stereo not shown)	-17.42
O=C(NCCO)NCc1c(F)cc(Br)cc1F	3.066
COc1cccc(-c2cc(N)n(C)n2)c1	18.11
CN(C)S(=O)(=O)c1cc2c(cc1Cl)OCCO2	42.1
O=C(NCC1CCCOC1)c1ccnc2ccccc12 (stereo not shown)	3.001
CC(NCC(C)(C)C(N)=O)c1ccc2c(c1)OCO2 (stereo not shown)	-8.403
COCCSCC(=O)Nc1ccn(C)n1	-4.326
CS(=O)(=O)NCC(=O)Nc1ccc(-n2cccn2)cc1	57.39
O=C(CCc1cc(Cl)cs1)NCCN1CCOCC1	5.756
Cc1ccc(NS(=O)(=O)N(C)C)c(C)c1	13.96
O=C(NCCOCc1ccccc1)c1ccco1	51.04
Cc1ccc2c(c1)C(O)CCCS2(=O)=O (stereo not shown)	2.629
N#Cc1cccc(NCC(=O)NCc2ccco2)c1	53.27
COc1ccc(NC(=O)CN)cc1Cl	22.18
CC(C)(C)NCCNC(=O)CC1(O)CCCC1	-0.5085
CC(O)C1CCN(Cc2ccccc2C#N)CC1 (stereo not shown)	0.3334
CN(C)c1nccc(NC(=O)c2ccc(Br)o2)n1	21.94
O=C(CSc1ncccc1Br)N1CCCC1	73.33
CC(NC(=O)c1ccc(C(C)(C)C)cc1)C(N)=O (stereo not shown)	-2.897
CCc1nccn1CCCNC(=O)CN1CCOC1=O	-0.6353
CN(CCCn1cccn1)C(=O)CN1CCCC(O)C1 (stereo not shown)	9.417
O=C(Nc1ccnc(CO)c1)c1ccc(F)cc1I	87.16
COCc1nn(CC(O)c2cccc(F)c2)c(=O)o1 (stereo not shown)	-8.111
CC1CNC2=CC=CNC2=N1 (stereo not shown)	-3.043
CC(O)(C1CCNCC1)C(F)(F)F (stereo not shown)	3.374
Cc1cc(C(=O)N(C)C2CCN(C)C2)cc(C)n1 (stereo not shown)	-5.926
O=C1CCN(Cc2ccccc2)C2(CC2)C1	14.51
CCc1cc(=O)[nH]c(C2(N)CCCC2)n1	-4.162
CCc1ccc(C(=O)NCc2ccccn2)o1	61.69
Cn1cc([C@@H]2C[C@H]2N)cn1	1.561
COc1ccccc1-c1ncc(CN)s1	-10.77
N#Cc1ncn(CCOCC2CC2)c1C#N	2.6
Cc1cc(N2CCS(=O)(=O)CC2)nc2ccccc12	-1.277
Cc1cccc2[nH]c(CO)cc12	-3.611
CN(C)C(=O)C1CSc2ccccc21 (stereo not shown)	37.75
Cc1cc(C(=O)NC2CCC(=O)N(C)C2)on1 (stereo not shown)	0.9079
NCc1cn2cc(Br)ccc2n1	26.55
COc1cccc(CNc2nc(C)no2)c1	43.63
c1ccc(CN2CCC(N3CCCC3)CC2)nc1	11.27
CC(C)C(=O)Nc1ccccc1CN(C)C	-4.882
COc1cccc(S(=O)(=O)CCN(C)CCO)c1	96.74
CC1Cc2ccccc2N(C(=O)c2csnn2)C1 (stereo not shown)	35.12
Cc1c(Br)cccc1C(=O)NC(C(N)=O)C(C)C (stereo not shown)	-15.68
CCO[C@H]1CN(Cc2ccccc2C#N)C[C@@H]1O	4.033
Nc1nccc(-c2ccncc2)n1	-5.786
CCN1CCN(C(=O)Nc2ccccc2)CC1	25.85
COCc1cccc(C(=O)NC(CO)c2ccsc2)c1 (stereo not shown)	-1.321
Cc1oc(C)c(C(=O)NCC(=O)N2CCCC2)c1C	73.81
CC1CN(S(=O)(=O)CCCS(=O)(=O)N(C)C)CCN1 (stereo not shown)	-5.679
Cc1ccnc(NCC2CCN(CCS(C)(=O)=O)C2)c1 (stereo not shown)	-6.392
CC(Cn1cccn1)NC(=O)NCCn1ccnc1 (stereo not shown)	12.76
N#CCS(=O)(=O)NCc1ccc(F)cc1	12.04
NC(CO)c1cccc2ccccc12 (stereo not shown)	30.19
CCC(C)Oc1cc(C(=O)NCc2ncc[nH]2)ccn1 (stereo not shown)	1.415
NC(=O)c1cc(NC(=O)N2CCCC2)ccc1Cl	-3.532
CCn1ncnc1CN1CCC(O)(CO)CC1	-6.641
Nc1nnc(SCc2ccccc2F)s1	54.84
COc1ccc(NC(=O)Cn2ccnc2)c(OC)c1	8.343
CN(Cc1ccc(N)nc1)c1ncc(Cl)cn1	80.64
Cc1ccc2ncc(CO)cc2c1	8.514
CN(C(=O)COc1ccccc1C(N)=O)C1CC1	12.32
CC(C)Cc1nc(COCc2ncc[nH]2)no1	2.798
O=C(C1CCC1)N1CCn2c1nc1ccccc12	19.74
CNC1CCc2nnc(C)n2CC1 (stereo not shown)	-10.58
O=C1NCCN2CC3(CCNCC3)CC12 (stereo not shown)	2.852
CCCN(CCCN(C)C)C(=O)CCCOC	15.6
COc1ccc(NC(=O)[C@H]2CC2(C)C)cc1CO	12.75
COCC(=O)N1CCCn2ccnc2C1C1CCCC1 (stereo not shown)	-0.9024
COCCn1cnc2c1c(=O)[nH]c(=O)n2CC(C)C	-23.85
CCN(CC)C1CCN(C(=O)Nc2cccnn2)C1 (stereo not shown)	2.615
N[C@H]1CN(C(=O)Cn2cccn2)C[C@@H]1C1CC1	-19.57
CC(C)CN1C(=O)C(N)c2ccccc21 (stereo not shown)	73.41
COc1cn(-c2ccccc2)nc1C(=O)NCC(C)C	69.07
CNC(=O)CN1CCNCC1	-14.37
O=C(NCc1cc(F)cc(Br)c1)C1COCCN1 (stereo not shown)	14.78
CC(C)CC(CN)CO (stereo not shown)	-6.246
Cc1ccc(CN(CCCC(=O)NC(N)=O)C2CC2)o1	-18.53
O=C(CCCc1cn[nH]c1)NCC[C@@H]1CCCN1	-3.956
CCc1c(C)nc2sc(C(N)=O)c(N)c2c1C	-4.797
Cc1nonc1CC(=O)NC(C)c1nc(C2CC2)no1 (stereo not shown)	14
COC(=O)CSc1nnc(C(F)(F)F)n1C	-9.671
COc1cc(CCNC(=O)C2CCCN2)ccc1F (stereo not shown)	-15.48
Cc1c(Cl)cccc1OCC(=O)NC(C(N)=O)C(C)C (stereo not shown)	18.29
CC(C)OCCCNC(=O)c1ccc(S(N)(=O)=O)cc1	0.1337
CC(C)CC(O)C(=O)N1CCN(c2cccnc2)CC1 (stereo not shown)	32.45
NC(=O)c1cncnc1N	2.445
CC(=O)NC(C(=O)N(C)Cc1cccs1)C(C)C (stereo not shown)	9.553
CCC(CO)NC(=O)C1(Cc2ccccc2)CC1 (stereo not shown)	18.83
CNC(=O)C(C)NS(=O)(=O)c1ccc(OC)c(Cl)c1 (stereo not shown)	15.03
CS(=O)(=O)CCN1CCC(Oc2ccc(F)cc2)CC1	61.03
CN1CCC(NC(=O)CCc2ccccc2F)CC1	-15.59
O=C(CNc1ccccc1F)N1CCCCC1	77.01
CCS(=O)(=O)NCCNc1ccccc1	14
CC(C)NC(=O)NC1CCNC1 (stereo not shown)	7.25
CCN(CC(N)=O)S(=O)(=O)c1ccc2ccccc2c1	17.35

5 of the entries, repeated:

* CS(=O)(=O)CCN1CCC(Oc2ccc(F)cc2)CC1 : 61.03%
* COCCSCC(=O)Nc1ccn(C)n1 : -4.326%
* N#Cc1cccc(NCC(=O)NCc2ccco2)c1 : 53.27%
* COc1cccc(S(=O)(=O)CCN(C)CCO)c1 : 96.74%
* Nc1nccc(-c2ccncc2)n1 : -5.786%